# Results: publication PMC9002018 (Frontiers in Veterinary Science, 2022)
# Assay: peptide made by a vendor (Fmoc solid-phase peptide synthesis)
# Conditions: whole synthesis
substance,measurement,value
PEPTIDE1{I.N.W.K.G.I.A.A.M.A.K.K.L.L.[am]}$$$$V2.0,final purity (method not given),98%

# Strings that start with PEPTIDE1 are HELM notation: dots part the residues, brackets hold end groups and non-standard residues.
